Pooled drug test results. Numbers come from NIAID ChemDB, via PubChem.

Common to all: tests on isolated targets; organism: HIV-1; protein: Integrase; measure: IC50

ICn is the concentration giving n% inhibition.

smiles,strain,mutations,method,result
O=C(O)C(=O)/C=C(\O)c1cn(Cc2cc(F)ccc2F)c2ccc(F)cc12,,G140S,strand transfer / fluorescence,3.4 µM
Cc1cn(C2CC(OP(=O)(O)OCC3OC(n4cnc5c(N)ncnc54)CC3O)C(COP(=O)(O)OC3CC(n4ccc(N)nc4=O)OC3COP(=O)(O)O)O2)c(=O)[nH]c1=O,,,strand transfer,6 µM
CC(C)CCCCCCCCCCCSCNc1ccc(S(=O)(=O)c2ccc(NCSCCCCCCCCCCCC(C)C)cc2)cc1,,,3′ processing,90 µM
CCOC(=O)C(C(=O)OCC)c1cn(S(=O)(=O)c2ccc(C)cc2)c2ccc(NC(=O)c3cccc(C)c3O)cc12,,Y143R,strand transfer / fluorescence,24.9 µM
CN(C)[C@@H]1C(=O)C(C(=O)NCNC2(C(=O)[O-])CCCC2)=C(O)[C@@]2(O)C(=O)C3=C(O)c4c(O)cccc4[C@@](C)(O)[C@H]3C[C@@H]12.[Na+],RF,,3′ processing,1.3 µM
CC1(C)OC(=O)/C(=C/C(=O)c2cn(Cc3ccc(F)cc3)c3ccc(Br)cc23)O1,,,strand transfer / fluorescence,10.7 µM
Cc1cn(C2CC(O)C(COP(=O)(O)OC3CC(n4cc(C)c(=O)[nH]c4=O)OC3COP(=O)(O)O)O2)c(=O)[nH]c1=O,,,strand transfer,53 µM
N#CC(C#N)=NNc1ccc(S(=O)(=O)c2ccc(NN=C(C#N)C#N)cc2)cc1,,,3′ processing,25.9 µM
CS(=O)(=O)CS(=O)(=O)Nc1cc(O)c(O)c2c1C(=O)N(Cc1ccccc1)C2=O,,,strand transfer,0.15 µM
C/C=C/c1cc(=O)c(C(=O)c2c(OC)cc(OC)cc2C(=O)OC)co1,,,absorbance,11 µM
O=C(O)c1ccc(S(=O)(=O)c2ccc(C(=O)O)c(C(=O)O)c2)cc1C(=O)O,,,strand transfer,29.5 µM
CN(C)C1C(=O)C(C(=O)NCNc2cccc(C(=O)O)c2C(=O)O)=C(O)C2(O)C(=O)C3=C(O)c4c(O)cccc4[C@](C)(O)[C@@H]3C[C@H]12,RF,,3′ processing,1.7 µM
Cc1ccc(S(=O)(=O)n2cc(/C(O)=C/C(=O)C(=O)O)c3cc(F)ccc32)cc1,,G140S,strand transfer / fluorescence,6.7 µM
Cc1cn(C2CC(O)C(COP(=O)(O)OC3CC(n4cnc5c(=O)[nH]c(N)nc54)OC3COP(=O)(O)O)O2)c(=O)[nH]c1=O,,,strand transfer,7.5 µM
CC(C)=C[C@H]1C[C@H](C)[C@]2(CC[C@]3(C)C[C@H]4[C@H](C(=O)C[C@@]4(C)O)C(C=O)=C[C@H]32)O1,,,strand transfer,>125 µM
CCOC(=O)C(C(=O)OCC)c1cn(S(=O)(=O)c2ccc(C)cc2)c2ccc(NC(=O)c3ccc(F)cc3Cl)cc12,,G140S,strand transfer / fluorescence,>25 µM
COC(=O)C(=O)OC1(C(=O)O)C[C@@H](OC(=O)/C=C/c2ccc(O)c(O)c2)C(O)[C@H](OC(=O)/C=C/c2ccc(O)c(O)c2)C1,LAI,,disintegration,0.47 ± 0.28 µg/mL
O=C1c2c(ccc(O)c2O)CN1Cc1cc(F)cc(F)c1,,,strand transfer,0.33 µM
CCOC(=O)C(C(=O)OCC)c1cn(S(=O)(=O)c2ccc(C)cc2)c2ccc(NC(=O)c3cc(F)c(F)c(F)c3)cc12,,Y143R,strand transfer / fluorescence,>25 µM
O=C(O)c1ccc(S(=O)(=O)c2ccc(C(=O)O)c([N+](=O)[O-])c2)cc1[N+](=O)[O-],,,3′ processing,55 µM
Cc1ccc(CN2Cc3ccc(O)c(O)c3C2=O)cc1F,,,strand transfer,1.48 µM
O=C(O)/C=C/c1ccc(O)c(O)c1,,,strand transfer,24 µM
CS(=O)(=O)CS(=O)(=O)Nc1ccccc1CN1Cc2ccc(O)c(O)c2C1=O,,,3′ processing,>333 µM
O=C(/C=C/c1ccc(O)c(O)c1)O[C@@H]1C[C@](OC(=O)/C=C/c2ccc(O)c(O)c2)(C(=O)O)C[C@@H](O)[C@H]1O,LAI,,strand transfer,0.56 ± 0.14 µg/mL
O=[N+]([O-])c1ccccc1S(=O)(=O)c1ccc(Cl)cc1,,,strand transfer,>100 µM
COc1cc(-c2ccc(O)cc2)c(OC)c(O)c1-c1ccc(O)cc1,,,strand transfer,47.7 µM
CSCC[C@H](NCC(=O)Nc1ccc(S(=O)(=O)c2ccc(NC(=O)CN[C@@H](CCSC)C(=O)O)cc2)cc1)C(=O)O,,,3′ processing,>100 µM
Cc1cn(C2CC(OP(=O)(O)OCC3OC(n4cnc5c(N)ncnc54)CC3O)C(COP(=O)(O)OC3CC(n4ccc(N)nc4=O)OC3CO)O2)c(=O)[nH]c1=O,,,3′ processing,65 µM
O=CNc1ccc(S(=O)(=O)c2ccc(NC=O)cc2)cc1,,,disintegration,>100 µM
O=C1c2ccc(O)c(O)c2C(=O)N1Cc1cccc(Br)c1,,,strand transfer,0.44 µM
CN(C)C1C(=O)C(C(=O)NCNC(CO)(CO)CO)=C(O)C2(O)C(=O)C3=C(O)c4c(O)cccc4C(C)(O)C3CC12,RF,,3′ processing,1.3 µM
Nc1ccc(S(=O)(=O)c2ccc(N)c([N+](=O)[O-])c2)cc1[N+](=O)[O-],,,3′ processing,>100 µM
Nc1ccn(C2CC(OP(=O)(O)OCC3OC(n4cnc5c(N)ncnc54)CC3OP(=O)(O)OCC3OC(n4cnc5c(=O)[nH]c(N)nc54)CC3O)C(COP(=O)(O)O)O2)c(=O)n1,,,strand transfer,15 µM
CN(C)[C@@H]1C(=O)C(C(=O)NCN2CCCC2)=C(O)[C@@]2(O)C(=O)C3=C(O)c4c(O)cccc4[C@@](C)(O)[C@H]3C[C@@H]12,RF,,strand transfer,34.1 µM

For reference, 4 entries again:

smiles | strain | mutations | method | result
Nc1ccn(C2CC(OP(=O)(O)OCC3OC(n4cnc5c(N)ncnc54)CC3OP(=O)(O)OCC3OC(n4cnc5c(=O)[nH]c(N)nc54)CC3O)C(COP(=O)(O)O)O2)c(=O)n1 |  |  | strand transfer | 15 µM
CCOC(=O)C(C(=O)OCC)c1cn(S(=O)(=O)c2ccc(C)cc2)c2ccc(NC(=O)c3ccc(F)cc3Cl)cc12 |  | G140S | strand transfer / fluorescence | >25 µM
CCOC(=O)C(C(=O)OCC)c1cn(S(=O)(=O)c2ccc(C)cc2)c2ccc(NC(=O)c3cccc(C)c3O)cc12 |  | Y143R | strand transfer / fluorescence | 24.9 µM
CN(C)C1C(=O)C(C(=O)NCNC(CO)(CO)CO)=C(O)C2(O)C(=O)C3=C(O)c4c(O)cccc4C(C)(O)C3CC12 | RF |  | 3′ processing | 1.3 µM

Blank or dashed fields: not listed here. Conditions beyond the fields shown may differ between rows.